Experimental data published in patent US20100068147A1, “DENGUE DIAGNOSIS AND TREATMENT” (Agency for Science , Technology and Research, priority 2006, published 2010).
Some results come without the dose or concentration used.

Tested on: HepG2 cells
Test: TaqMan low density array (TLDA) gene expression, HepG2 cells, dengue virus over heat-inactivated virus
Type: cell-based, human
Settings: dengue virus infection over heat-inactivated virus

Substance: RANTES
- Fold increase in gene expression as determined by TLDA, HepG2 48 hrs (48 hrs): 296.5 fold
- Fold increase in gene expression as determined by TLDA, HepG2 72 hrs (72 hrs): 1079.5 fold
